{"source": "paper PMC8879871", "about": "“Chemical Synthesis of a Functional Fluorescent-Tagged α-Bungarotoxin” (Toxins, 2022)", "target": "T1, Cy5-α-bungarotoxin (synthetic fluorescent-tagged α-bungarotoxin) (Bungarus multicinctus)", "T1 chain": "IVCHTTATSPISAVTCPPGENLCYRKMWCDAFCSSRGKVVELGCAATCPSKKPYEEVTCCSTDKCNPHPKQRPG", "assay": "MST", "data": [{"binder": "GSGWRYYESSLEPYPDGSGK (biotin on the extra C-terminal K; free C-terminal acid (-OH))", "note": "[BSpep, GSGWRYYESSLEPYPDGSGK(biotin)-OH, 20-mer peptide mimicking the α-bungarotoxin binding site]", "values": [{"measurement": "Kd", "result": 1.04, "unit": "µM"}]}]}
